In US7102020B2, “Total synthesis of daurichromenic acid” (priority 2002, dated 2006):
The index is printed as in the source, without its formula.

Test system: HIV
Test: anti-HIV activity in acutely infected H9 cells
Type: cell-based

Row | SMILES | therapeutic index (TI)
1 | CC(C)=CCC/C(C)=C/CC[C@@]1(C)C=Cc2c(cc(C)c(C(=O)O)c2O)O1 [Daurichromenic acid] | 3,710
2 | CC(C)=CCC[C@@]1(C)[C@@H]2CC[C@]3(C)Oc4cc(C)c(C(=O)O)c(O)c4[C@H]1[C@H]23 [Rhododaurichromanic acids A, rhododaurichromanic acids A] | 91.9
